# Test results taken from PubChem BioAssay AID1259309 (ICCB-Longwood Screening Facility, Harvard Medical School, 2017).
# This is a selection; strong and weak results do not stand in their true shares. Active and inactive are the calls of the source. Rule as the data show it: active = growth inhibition above about 68%; inactive = the rest.
# Assay: growth inhibition of ugtP-null S. aureus, primary screen, RN4220 ugtP deletion, OD600 (AID 1259309);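 also: plate controls were untreated wells for no effect and antibiotic for full effect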
# Settings: 16 h, stronger effect = higher value
row,SMILES,growth inhibition
1,O=[N+]([O-])c1cc([N+](=O)[O-])c(-c2ccn[nH]2)s1,active: 86.8%
2,O=c1c2cc([N+](=O)[O-])ccc2[nH]c2c([N+](=O)[O-])cc([N+](=O)[O-])cc12,active: 101%
